# Earlier results as cited in publication PMC4853472, “Trapping mammalian protein complexes in viral particles” (Nature Communications, 2016).
# Biological target: GAG (Human immunodeficiency virus 1) (UniProt O93182)
substance,measurement,value
Cyclophilin A (from UniProt P62937),Kd,16 µM
